Source: patent US20250171495A1, “MUTLI-TARGETED SERINE PROTEASE INHIBITORS FOR TREATMENT OF CANCER AND VIRAL INFECTION” (Washington University, priority 2023, published 2025)

Each compound was assayed on VSV-MERS (assay: Host cell entry assay, VSV-MERS chimera, Calu-3 cells). Conditions: read-out: VSV MERS Cell Entry EC50; human lung epithelial Calu-3 cells.

Going from `CCC(C)[C@H](NC(C)=O)C(=O)N[C@@H](CCC(N)=O)C(=O)N[C@@H](Cc1ccccc1)C(=O)N[C@@H](CCCNC(=N)N)C(=O)c1nc2ccccc2s1` (stereo partly drawn) [MM3116, N-[(S)-1-[N-(S)-1-[(1,3-benzothiazol-2-yl)carbonyl]-4-guanidinobutylcarbamoyl]-2-phenylethyl](S)-2-[(2S)-2-acetylamino-3-methylvalerylamino]glutaramide] to `CC(=O)N[C@@H](CCC(N)=O)C(=O)N[C@@H](Cc1ccccc1)C(=O)N[C@@H](CCCNC(=N)N)C(=O)c1nc2ccccc2s1` [MM3144, N-[(S)-1-[N-(S)-1-[(1,3-benzothiazol-2-yl)carbonyl]-4-guanidinobutylcarbamoyl]-2-phenylethyl](S)-2-acetylaminoglutaramide], the EC50 falls from 2.3 nM to 0.55 nM (4.2-fold).

Compared with `CC(=O)NCC(=O)N[C@@H](CCC(N)=O)C(=O)N[C@@H](Cc1ccccc1)C(=O)N[C@@H](CCCNC(=N)N)C(=O)c1nc2ccccc2s1` [MM3122, N-[(S)-1-[N-(S)-1-[(1,3-benzothiazol-2-yl)carbonyl]-4-guanidinobutylcarbamoyl]-2-phenylethyl](S)-2-[(acetylaminomethyl)carbonylamino]glutaramide], `CC(=O)N1CCC[C@H]1C(=O)N[C@@H](CCC(N)=O)C(=O)N[C@@H](Cc1ccccc1)C(=O)N[C@@H](CCCNC(=N)N)C(=O)c1nc2ccccc2s1` [MM3123, N-[(S)-1-[N-(S)-1-[(1,3-benzothiazol-2-yl)carbonyl]-4-guanidinobutylcarbamoyl]-2-phenylethyl](S)-2-[(S)-1-acetyl-2-pyrrolidinylcarbonylamino] glutaramide] is 3.3-fold higher in EC50: 0.87 nM for the first, 2.9 nM for the second. The first is the more potent here.

Work on `CC(=O)N[C@H]1CC(=O)NCCCC[C@@H](C(=O)N[C@@H](CCCNC(=N)N)C(=O)c2nc3ccccc3s2)NC(=O)[C@H](CC(C)C)NC1=O` [VD2173, Ac-Cyclo(DLK)—R-ketobenzothiazole] yielded an EC50 of 273 nM.
